PubChem BioAssay AID624099, ICCB-Longwood, 2012
The deposit covers about 21,000 reagents; shown is an unselected part. Over the whole deposit, 497 (2.4%) got an active call. 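Higher z means weaker E2 silencing; only reporter increases were scored, and knock-downs that hurt cell survival may mask genuine repressor factors.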

- Aim: 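Host factors E2 relies on to silence an HPV18 LCR reporter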 (primary screen)
- Cell system: human C33A cervical carcinoma cells (HPV-negative) stably expressing BPV1 E2 and an HPV18 LCR luciferase reporter
- Knock-down reagent: siRNA pool against human genes, 40 nM
- Time to read-out: 72 h
- Measured: 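HPV18 LCR reporter light per well, converted to plate-wise z-scores that exclude control wells, and averaged over triplicate plates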
- Direction: mean z-score and z-score: higher = stronger reporter signal, weaker E2 silencing
- Rule for the call: 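Hit if mean z-score reaches 2 and two or more of three replicate z-scores also reach 2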

| target gene | mean z-score | z-score, replicate A | z-score, replicate B | z-score, replicate C | activity call |
| --- | --- | --- | --- | --- | --- |
| VSTM5 | 0.27 | 0.32 | 0.31 | 0.17 | inactive |
| EPB41L2 | -0.58 | -0.76 | -0.3 | -0.66 | inactive |
| TSHB | 0.64 | 0.56 | 0.75 | 0.62 | inactive |
| SMPDL3B | 0.07 | 0.11 | 0.08 | 0 | inactive |
| ENTPD7 | 1.84 | 2.08 | 1.7 | 1.73 | inactive |
| MAVS | -1.06 | -1.1 | -0.83 | -1.24 | inactive |
| ZNF292 | -1.08 | -1.12 | -1.15 | -0.98 | inactive |
| CELP | -0.56 | -0.84 | -0.45 | -0.41 | inactive |
| CYBA | 0.23 | -0.17 | 0.67 | 0.18 | inactive |
| CMIP | 0.5 | 0.43 | 0.67 | 0.4 | inactive |
| BATF3 | 1.37 | 1.11 | 1.41 | 1.57 | inactive |
| VPREB1 | 0.61 | 0.66 | 0.69 | 0.49 | inactive |
| LOC402318 (retired record) | 0.49 | 0.55 | 0.44 | 0.46 | inactive |
| FGFR3 | 0.63 | 0.91 | 0.26 | 0.71 | inactive |
| USP18 | 0.51 | 0.48 | 0.67 | 0.39 | inactive |
| GDPD4 | 0.61 | 0.47 | 0.69 | 0.68 | inactive |
| GDF3 | -0.45 | -0.5 | -0.64 | -0.21 | inactive |
| C6orf118 | -0.6 | -0.41 | -0.67 | -0.72 | inactive |
| LOC401058 (retired record) | 0.7 | 1.26 | 0.79 | 0.04 | inactive |
| RETREG2 | -1.32 | -1.16 | -1.4 | -1.39 | inactive |
| LINC00115 | 0.48 | 0.94 | 0.43 | 0.06 | inactive |
| TTC3 | 1.75 | 1.52 | 1.6 | 2.12 | inactive |
| LOC402494 (retired record) | 0.99 | 1.05 | 1.24 | 0.69 | inactive |
| KCNJ5-AS1 | 0.91 | 1.16 | 0.65 | 0.91 | inactive |
| SEC11B | -0.46 | -0.67 | -0.18 | -0.54 | inactive |
| EPHB4 | 0.19 | 0.47 | 0.16 | -0.06 | inactive |
| NOP2 | -0.55 | -0.64 | -0.56 | -0.45 | inactive |
| GAGE2E | -0.65 | -1.02 | -0.53 | -0.4 | inactive |
| PNPLA8 | -0.2 | -0.16 | -0.31 | -0.13 | inactive |
| FTO | -0.36 | -0.44 | -0.24 | -0.38 | inactive |
| POLR1A | -1.98 | -1.84 | -2.22 | -1.89 | inactive |
| GNAT3 | 0.82 | 0.74 | 0.97 | 0.75 | inactive |
| BIN3-IT1 | 0.37 | 0.37 | 0.39 | 0.36 | inactive |
| MGA | 1.85 | 1.88 | 2.19 | 1.49 | inactive |
| POU3F3 | -0.38 | -0.64 | -0.31 | -0.18 | inactive |
| MARCHF1 | -0.35 | -0.18 | -0.11 | -0.74 | inactive |
| USP4 | 0.94 | 0.83 | 0.95 | 1.05 | inactive |
| PTPRA | 1.02 | 1.59 | 1.01 | 0.46 | inactive |
| MATN3 | 0.02 | -0.17 | 0.13 | 0.09 | inactive |

An excerpt from above, limited to “mean z-score”.
GDF3	-0.45
C6orf118	-0.6
LOC401058 (retired record)	0.7
RETREG2	-1.32
